Experimental data taken from patent US20090053187A1 (priority 2005, published 2009).

Tested on: STI-1
Conditions: strain STI-1

Row | SMILES | Zone of culture growth delay at using discs with antibiotics [mm]
1 | CC[C@H]1OC(=O)[C@H](C)[C@@H](O[C@H]2C[C@@](C)(OC)[C@@H](O)[C@H](C)O2)[C@H](C)[C@@H](O[C@@H]2O[C@H](C)C[C@H](N(C)C)[C@H]2O)[C@](C)(O)C[C@@H](C)C(=O)[C@H](C)[C@@H](O)[C@]1(C)O | 3
2 | O=C(N[C@H](CO)[C@H](O)c1ccc([N+](=O)[O-])cc1)C(Cl)Cl | 4
